Compound potency records, mixed from different reports. Data source: NIAID ChemDB in PubChem.

All rows: tests in culture; species: HIV-1; cell line: CEM + CEM-SS; endpoint: EC50

Lines come from different laboratories, so protocols vary. ECn is the concentration giving n% inhibition of infection, replication or growth.

CCc1c(Sc2ccccn2)n(COCc2ccccc2)c(=O)[nH]c1=O ; strain: IIIB ; changes: RT-Y181C ; read by: cytopathic effect / XTT ; value: 1.6 µM
O=S1(c2ccccc2)=NC(=S)Nc2ccccc21 ; strain: G ; read by: cytopathic effect / XTT ; value: 1.13 µM
Cc1cn([C@H]2C[C@H](N=[N+]=[N-])[C@@H](CO)O2)c(=O)[nH]c1=O ; strain: NL4-3 ; changes: RT-L74V ; read by: cytopathic effect / XTT ; value: 0.03 µM
CC(C)=CCN1Cc2cccc3[nH]c(=S)n(c23)C[C@@H]1C ; strain: IIIB HEPT-resistant (RT P236L) ; changes: RT-P236L ; read by: cytopathic effect / XTT ; value: 0.1 µM
C/C=C/CSc1cc(NC(=S)c2ccsc2C)ccc1Cl ; strain: NL4-3 (RT L100I) ; changes: RT-L100I ; read by: cytopathic effect / XTT ; value: >2 µM
Nc1cc(O)c2cc(N=Nc3ccc(N=Nc4ccc(N=Nc5ccc6cc(S(=O)(=O)O)cc(S(=O)(=O)O)c6c5)c5ccccc45)c4cc(S(=O)(=O)O)ccc34)c(S(=O)(=O)O)cc2c1 ; strain: RF ; read by: cytopathic effect / XTT ; value: 7 µM
O=S1(c2cccc(Cl)c2)=NC(=S)Nc2ccc(Cl)cc21 ; strain: IIIB ; read by: cytopathic effect / XTT ; value: 0.63 µM
CCCc1cc(=O)oc2c3c(c4c(c12)OC(C)(C)C=C4)O[C@@H](C)[C@H](C)[C@@H]3O ; strain: Costatolide-resistant (RT L100I T139I) ; changes: RT-L100I T139I ; read by: XTT ; value: >27 µM
CC(C)=CCN1Cc2cc(Cl)cc3[nH]c(=S)n(c23)C[C@@H]1C ; strain: 214 ; read by: cytopathic effect / MTT ; value: 0.161 µM
Fc1cccc(F)c1C1SCc2nc3ccccc3n21 ; strain: C ; read by: cytopathic effect / XTT ; value: 1.14 µM
Cc1ccnc2c1NC(=O)c1cccnc1N2C1CC1 ; strain: NL4-3 (RT V106I) ; changes: RT-V106I ; read by: cytopathic effect / XTT ; value: >2 µM
CC(C)=CCN1Cc2cccc3[nH]c(=S)n(c23)C[C@@H]1C ; strain: IIIB ; read by: cytopathic effect / XTT ; value: 0.07 µM
CCCc1cc(=O)oc2c3c(c4c(c12)OC(C)(C)C=C4)O[C@H](C)[C@@H](C)[C@@H]3O ; strain: NL4-3 ; read by: XTT ; value: 0.1 µM
Cc1occc1C(=S)Nc1ccc(Cl)c(/C=N/OC(C)(C)C)c1 ; strain: Costatolide-resistant (RT Y188H) ; changes: RT-Y188H ; read by: cytopathic effect / XTT ; value: 1.6 µM
Cc1ccnc2c1NC(=O)c1cccnc1N2C1CC1 ; strain: NL4-3 ; changes: RT-K103N ; read by: cytopathic effect / XTT ; value: >2 µM
O=S(=O)(c1ccccc1)c1ccccc1 ; strain: Dihydrocostatolide-resistant (RT-L100I) ; changes: RT-L100I ; read by: XTT ; value: 53.1 µM
Cc1c(Sc2ccccc2)n(COCCO)c(=O)[nH]c1=O ; strain: IIIB ; changes: RT-V108I ; read by: cytopathic effect / XTT ; value: >325 µM
Cc1cn([C@H]2C[C@H](N=[N+]=[N-])[C@@H](CO)O2)c(=O)[nH]c1=O ; strain: McK ; read by: cytopathic effect / XTT ; value: 0.0006 µM
Cc1cn([C@H]2C[C@H](N=[N+]=[N-])[C@@H](CO)O2)c(=O)[nH]c1=O ; strain: UC10-resistant (RT K103N) ; changes: RT-K103N ; read by: XTT ; value: 0.003 µM
CCc1c(C(=O)c2cc(C)cc(C)c2)n(CC2CC=CC2)c(=O)[nH]c1=O ; read by: cytopathic effect / XTT ; value: 0.002 µM
CN1N=C(N)c2cn([C@@H]3O[C@H](COP(=O)(O)O)[C@@H](O)[C@H]3O)c3ncnc1c23 ; strain: LAV ; read by: XTT ; value: 0.07 µM
Cc1cn([C@H]2C[C@H](N=[N+]=[N-])[C@@H](CO)O2)c(=O)[nH]c1=O ; strain: NL4-3 ; changes: RT-Y188C ; read by: cytopathic effect / XTT ; value: 0.006 µM
Cc1ccnc2c1NC(=O)c1cccnc1N2C1CC1 ; strain: SK1 ; read by: XTT ; value: 0.2 µM
Cc1cn([C@H]2C[C@H](N=[N+]=[N-])[C@@H](CO)O2)c(=O)[nH]c1=O ; strain: TP1 ; read by: cytopathic effect / XTT ; value: 0.005 µM

2 of the rows above, restated:

Cc1ccnc2c1NC(=O)c1cccnc1N2C1CC1 ; strain: NL4-3 ; changes: RT-K103N ; read by: cytopathic effect / XTT ; value: >2 µM
CN1N=C(N)c2cn([C@@H]3O[C@H](COP(=O)(O)O)[C@@H](O)[C@H]3O)c3ncnc1c23 ; strain: LAV ; read by: XTT ; value: 0.07 µM